The source of these data is PMC4310594.

Chains of the proteins cited; added tags and fusions are not shown. Lines headed by an entry give the natural chain unless they say otherwise; changes in a name come on top.
UniProt A0A0H3GJQ8: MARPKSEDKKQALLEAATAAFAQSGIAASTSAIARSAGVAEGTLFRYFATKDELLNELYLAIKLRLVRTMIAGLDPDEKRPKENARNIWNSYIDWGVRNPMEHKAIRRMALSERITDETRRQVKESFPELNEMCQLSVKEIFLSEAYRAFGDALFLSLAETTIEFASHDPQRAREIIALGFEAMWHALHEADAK

In series [1] the target is T1, RamA (UniProt Q48413).
T1 sequence (looked up, limits assumed): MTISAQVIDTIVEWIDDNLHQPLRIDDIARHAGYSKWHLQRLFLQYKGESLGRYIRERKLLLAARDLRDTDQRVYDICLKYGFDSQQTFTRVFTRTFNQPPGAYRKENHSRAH
Nature of the series: EMSA. Particulars: 200 nM RamA, 2 nM DNA; recombinant protein; protein details: His-tag; label: 32P 5' end; probe letters rebuilt from the primers and the genome.

The target of series [2] is RamR (UniProt A0A0H3GJQ8). Nature of the series: EMSA. The following applies: 2 uM RamR, 2 nM pI, shift not perturbed by 1 uM cold sRamA5; recombinant protein; label: 32P (radiolabelled); probe letters rebuilt from the primers and the genome. (Mobility shift assays separate free from complexed probe on a gel.)

Construct, isoform or probe ends are uncertain for at least one entry. For some of these results: Tags and fusion partners may be left off the protein sequences shown.

Regarding “CGTTGGGGAATTTTGCCCGATACTCAATTTCGAGATCGCTAATACTGGCGTCTGACAGCTCCCAAATTTCGTTGAATAAATCTGATTTATTCTTGAAATGCCAGTAGATAGCCCCCCTCGTTACACCCGCAGCTTTTGCAATTGTTGCCAACGAGGTAGATGATACGCCTTGCTGCGAAAACAGACGCAGAGCAACATCCAGAATCAGTTGCCGGGTTTCACGTGCCTGTTGTTTGGTTTTTCGTGCCATAGGTTAATGACTTTACAGAGGTTACGTTTACATACATTTGTGAATGTATGTACCATAGCATGACCATAATAGAAAGACTGTAGTGGGTTTGTGGTTGTTTGAGCCACTGAACATTTTGAAATTGGACACTCGAGGTTTACATATGAACAAAAACAGAGGGTTAACGCCTCTGGCGGTCGTTCTGATGCTCTCAGGCAGC (double strand) [acrA promoter]”, the binding result in series [1] is listed as “binds”.

For “GCTCTAGACTACTTTTTTCCTCACGCAGGTTTAAACAAACCGCCGATCTTGGCACGTCTGACCAGGTCGCTGCAACGGCGGAACGCAAAAATTGAAAATCGTCTTGACGACTTTCATCGCTTTCCTAATAATGAGTGCGTACTCACTCATAATCAAGTTATATCATAAAGCCTCCGGGATGGGGGCTTTTGTCTGGTCAGGATATGAACCGTGTCACTTTCAGCGTGGTCGCCATCATGTTACTCGCAGCAGCAACGACATTGCCGTTTGTTCTTAATGCCGGTTTTGGTAAGGCGCCGCAGGG (double strand) [pI promoter (romA-ramA)]”, the binding result in series [2] is “binds”.

Turning to “GGCAGTCAGCTTTTTCGTGGCGTCAAAGGCCTTGGTGGAATAGCGCTTCAAAGCGACCGATACGATATCCATAACTCTTCCTCACAGTTTACAGCACCTTACCGGTGCGTTCAGGAGAGGAAGAGTACAGCGAAGATCGCAAAATGATAAGGGTGAAAAATGCGATAACACTTATCGCATTTGGCTGAAAATCAGCGCGGACGCAGGCGCTGCTGGGCCTTTTTACTCAGCTTGTTCACCACCTGATGCCACGAATCGTCAATCAGCTCGGCCAGCAGATCCTCGCTGATATCCTCTCCTGGCACCACCGTGATCCAGTGTTTCTTGTTCATATGGTAGCCGGGTTCGATACTGCGATAAATTTGCTGATTCAGCAGCGACTTCTGCGGCTCGGCCTTGAGATTGACCAGCGCCCGGCCGCGAATAGTCATGGTGATCATAAAGATGCGGCCGTCG (double strand) [nfnB promoter]”, the binding result in series [1] was “binds”.

For “TTAAACTTTGCCCCAGTCACAAATAACCGCATGCTGGCCGTGTCAAACCGGGCGAAACGGACTGTTTGCGTTCGCTATCGCCATAATAAAGCGTGAGTAAAAGAGGTATTGGTCGAGAGGCTGAGGCAAATGTACTGGCTATTTTATCGACAATCGGCCGGGCCGTAGAGGTTAGGTTTATTTATTTATGCATTAAACAGGAAATTTTACGCGTTGCGTCTAATAATAGAGTAGTCCCCAGCGTAAGGGCTGAATTTATCCTGGAATCGGCTTATAATAACGCGCTTTGTGATTGAGTATTACCGCACGAATTGGAAAAATACTACGTGCAGGATCCGCTACTTTATTTCGCGGTTTTTGCTCAGCTATTATTGAGTGAATTAACAGGATTACTATGTCAAATTTACCCAAATTTTCCCGCGCGCTGTTGCACCCGCGTTACTGGCTATTGTGGCTGGGAATTGGCTTTTTGTGGCTGCTGGTGCAATTACCGTATCCGGT (double strand) [lpxL-2 promoter]”, in series [1], the binding result was “binds”.
